Where a sequence shows no end group, the ends are not given.
Test: general procedure: hybrid (solid and solution phase) peptide synthesis; Cys-SH resin (thioester fragment Fr-2t); N,N'-dicyclohexylcarbodiimide/hydroxybenzotriazole
Details: several disulfide bridges, sequence written open

Sequence: IATSPYYACNCPNNCKHKKGSGCKYHSGPSDKSKVISGKCEWQGGQLNCIAT
- step yield (coupling step): 40–42%
- oxidative folding yield (oxidative folding step): 23–25%
- isolated yield (whole synthesis, overall): 2–3%
